This assay addresses HIV-1 (concentrated virus preparation / 100 TCID50 inoculum) (HIV-1). The experiment in a line: cell-based or functional assay.

Where “and” joins values, the source holds several entries; their conditions need not be identical. Identical values can stand only once.

Regarding “Soluble CD4 (from UniProt P01730 26-396) (receptor)”, the concentration required to prevent 50% of the cultures from becoming infected by HIV is 10 µg/mL and 25 µg/mL.

These data come from patent US7070991.
